The structures appear in SMILES notation.

The subject of the data set is MT2. Briefly: Cytotoxicity against human MT2 cells infected with HIV1 harboring reverse transcriptase K103N/Y181C mutation by MTT assay. The format is cell-based. In general terms: Tetrazolium assays rely on reduction of a dye to a coloured formazan, in cell work by metabolically active cells.

A word on the CC50: it is the concentration that lowers cell viability or growth by half. Compound `N#Cc1ccc(Nc2ncc(Cc3c(F)cccc3F)o2)cc1Cl` had a half-maximal cytotoxic concentration (CC50) of 8.9 µM.

For the origin of these results see ChEMBL document CHEMBL1156168, “Eastern extension of azoles as non-nucleoside inhibitors of HIV-1 reverse transcriptase; cyano group alternatives” (Bioorg Med Chem Lett, 2010).
